Molecules are shown by their SMILES.

The target of this experiment is didomain MnmC homolog from Vibrio cholerae (Vibrio cholerae, UniProt Q9KQ91). The experiment is classed as biochemical. Particulars: 10 mM CEL, 5 μM MnmC, 4 h, 37 °C.

`CC(NCCCC[C@H](N)C(=O)O)C(=O)O` (stereo partly shown) [CEL, N^ε-(carboxyethyl)lysine]: the relative activity entry is “their activities indicate that MnmC variants could more broadly catalyze CEL cleavage”.
